Earlier results in US9408846B2, “Formulations and methods for delaying onset of chronic neuropathic pain” (dated 2016).

Tested on: sciatic nerve
Settings: without epinephrine, most effective doses

## NC1=N[C@H](O)[C@H]2[C@H]3O[C@]4(O)O[C@@H]([C@@H](O)[C@@]2(N1)[C@@H]4O)[C@]3(O)CO
  toxicity with sciatic nerve block: considerable toxicity
